Experimental data taken from US9617302B2 (priority 2011, dated 2017).
Only a part of the results on these compounds is given; other tests are left out.

Chains of the proteins cited; added tags and fusions are not shown. Residues count along the entry.
UniProt Q9HCN6, 21-339 limits assumed: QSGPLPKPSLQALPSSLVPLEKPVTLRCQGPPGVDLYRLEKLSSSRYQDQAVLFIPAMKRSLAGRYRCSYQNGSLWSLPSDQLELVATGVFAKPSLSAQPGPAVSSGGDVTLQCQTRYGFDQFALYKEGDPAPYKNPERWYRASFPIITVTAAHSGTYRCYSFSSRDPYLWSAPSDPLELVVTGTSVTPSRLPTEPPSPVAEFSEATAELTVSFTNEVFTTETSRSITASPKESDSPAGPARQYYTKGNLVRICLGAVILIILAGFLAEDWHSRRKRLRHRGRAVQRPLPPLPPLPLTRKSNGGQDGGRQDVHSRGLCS
UniProt P07359, 17-652 limits assumed: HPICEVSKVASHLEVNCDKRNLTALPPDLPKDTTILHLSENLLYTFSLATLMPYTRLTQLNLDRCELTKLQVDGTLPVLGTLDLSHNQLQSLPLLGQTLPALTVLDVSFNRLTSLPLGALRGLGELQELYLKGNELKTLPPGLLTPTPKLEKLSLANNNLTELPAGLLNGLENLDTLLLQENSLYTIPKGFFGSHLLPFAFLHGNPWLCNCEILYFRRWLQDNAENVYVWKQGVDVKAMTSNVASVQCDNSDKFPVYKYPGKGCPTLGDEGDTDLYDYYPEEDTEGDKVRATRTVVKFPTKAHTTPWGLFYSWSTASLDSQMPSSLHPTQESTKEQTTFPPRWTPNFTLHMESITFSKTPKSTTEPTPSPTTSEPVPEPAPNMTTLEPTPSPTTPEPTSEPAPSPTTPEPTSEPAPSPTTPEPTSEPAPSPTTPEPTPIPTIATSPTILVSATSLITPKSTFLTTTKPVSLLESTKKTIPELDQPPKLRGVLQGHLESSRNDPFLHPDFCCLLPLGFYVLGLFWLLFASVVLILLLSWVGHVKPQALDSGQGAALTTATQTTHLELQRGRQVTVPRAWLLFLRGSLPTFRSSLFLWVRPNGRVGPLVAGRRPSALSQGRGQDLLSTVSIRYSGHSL
UniProt P05556, 21-798 limits assumed: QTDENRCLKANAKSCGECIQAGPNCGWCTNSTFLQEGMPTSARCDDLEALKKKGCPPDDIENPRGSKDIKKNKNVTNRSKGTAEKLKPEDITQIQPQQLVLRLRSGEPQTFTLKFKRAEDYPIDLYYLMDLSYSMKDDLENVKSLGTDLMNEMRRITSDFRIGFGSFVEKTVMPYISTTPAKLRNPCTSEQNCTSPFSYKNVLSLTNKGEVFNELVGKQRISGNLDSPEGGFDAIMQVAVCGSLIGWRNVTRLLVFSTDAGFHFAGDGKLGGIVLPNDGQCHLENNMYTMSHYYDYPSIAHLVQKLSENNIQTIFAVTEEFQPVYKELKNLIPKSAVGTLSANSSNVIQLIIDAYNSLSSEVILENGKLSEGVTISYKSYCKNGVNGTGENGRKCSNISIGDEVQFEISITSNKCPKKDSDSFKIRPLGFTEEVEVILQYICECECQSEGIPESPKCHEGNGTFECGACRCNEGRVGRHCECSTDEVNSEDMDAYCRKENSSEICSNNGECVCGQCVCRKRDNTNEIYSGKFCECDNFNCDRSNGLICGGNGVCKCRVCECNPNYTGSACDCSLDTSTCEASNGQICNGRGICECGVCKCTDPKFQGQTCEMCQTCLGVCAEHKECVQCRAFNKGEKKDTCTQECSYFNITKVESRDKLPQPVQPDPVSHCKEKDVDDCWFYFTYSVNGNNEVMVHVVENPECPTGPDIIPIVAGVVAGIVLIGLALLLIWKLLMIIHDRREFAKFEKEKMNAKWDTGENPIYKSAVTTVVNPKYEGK
UniProt P17301, 30-1181 limits assumed: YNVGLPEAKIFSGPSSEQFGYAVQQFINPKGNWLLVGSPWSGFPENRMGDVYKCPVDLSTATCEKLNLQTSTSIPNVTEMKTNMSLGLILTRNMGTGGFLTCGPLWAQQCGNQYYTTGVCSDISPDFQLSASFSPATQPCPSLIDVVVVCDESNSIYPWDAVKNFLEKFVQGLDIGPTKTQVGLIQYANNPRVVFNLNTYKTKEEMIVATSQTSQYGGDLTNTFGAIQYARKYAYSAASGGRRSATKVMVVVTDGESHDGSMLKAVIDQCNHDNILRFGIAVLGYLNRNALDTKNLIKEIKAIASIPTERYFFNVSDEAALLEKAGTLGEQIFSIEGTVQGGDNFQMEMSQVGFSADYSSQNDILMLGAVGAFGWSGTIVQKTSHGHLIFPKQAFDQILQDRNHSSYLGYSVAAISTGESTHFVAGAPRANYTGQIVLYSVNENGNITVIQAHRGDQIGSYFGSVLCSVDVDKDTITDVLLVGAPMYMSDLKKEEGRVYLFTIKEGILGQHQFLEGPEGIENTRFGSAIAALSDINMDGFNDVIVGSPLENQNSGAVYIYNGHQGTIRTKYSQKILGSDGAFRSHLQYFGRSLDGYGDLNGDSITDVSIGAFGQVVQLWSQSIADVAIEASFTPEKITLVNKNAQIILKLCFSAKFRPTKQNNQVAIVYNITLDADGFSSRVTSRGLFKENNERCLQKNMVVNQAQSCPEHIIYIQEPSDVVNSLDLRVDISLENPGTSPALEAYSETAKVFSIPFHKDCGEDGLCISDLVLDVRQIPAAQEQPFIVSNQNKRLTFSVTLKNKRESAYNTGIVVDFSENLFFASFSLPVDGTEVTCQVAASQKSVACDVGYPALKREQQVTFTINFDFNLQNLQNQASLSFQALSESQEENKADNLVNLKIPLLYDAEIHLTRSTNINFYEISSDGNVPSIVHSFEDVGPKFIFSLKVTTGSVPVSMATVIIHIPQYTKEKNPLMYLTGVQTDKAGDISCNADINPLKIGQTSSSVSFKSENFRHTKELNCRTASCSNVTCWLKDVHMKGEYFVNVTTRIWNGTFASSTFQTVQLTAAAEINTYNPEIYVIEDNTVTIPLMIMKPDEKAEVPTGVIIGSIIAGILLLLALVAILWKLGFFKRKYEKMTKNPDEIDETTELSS
UniProt P30273, 19-86 partner limits assumed: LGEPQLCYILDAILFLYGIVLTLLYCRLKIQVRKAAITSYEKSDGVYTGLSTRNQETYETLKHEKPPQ
UniProt P13224, 26-206 partner limits assumed: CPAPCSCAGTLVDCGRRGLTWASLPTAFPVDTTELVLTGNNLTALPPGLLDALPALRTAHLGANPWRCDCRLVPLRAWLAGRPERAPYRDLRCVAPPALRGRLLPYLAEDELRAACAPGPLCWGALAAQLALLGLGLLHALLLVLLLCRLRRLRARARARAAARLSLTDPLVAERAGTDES
UniProt P14770, 17-177 partner limits assumed: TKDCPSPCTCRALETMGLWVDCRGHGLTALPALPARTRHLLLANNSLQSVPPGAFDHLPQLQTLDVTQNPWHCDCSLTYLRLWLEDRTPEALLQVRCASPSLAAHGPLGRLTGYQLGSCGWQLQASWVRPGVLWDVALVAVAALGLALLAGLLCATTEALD

Key:
GPVI = GPVI (Homo sapiens, UniProt Q9HCN6); experiment: Flow cytometry, binding of anti-GPVI mAb to platelets; conditions: CVX C-terminal, various concentrations, 30 min
GPIb = GPIb (Homo sapiens, UniProt P07359); experiment: Flow cytometry, binding of anti-GPIb mAb to platelets; conditions: CVX C-terminal, various concentrations, 30 min
washed platelets [1] = experiment: Ristocetin-induced platelet activation/agglutination; type: cell-based, human; conditions: 50 μg/ml; data not shown
α2β1 integrin = α2β1 integrin (Homo sapiens, UniProt P05556+P17301); experiment: Flow cytometry, binding of anti-α2β1 integrin mAb to platelets; conditions: CVX C-terminal, various concentrations, 30 min
washed platelets [2] = experiment: Collagen-induced aggregation of washed platelets; type: cell-based, human; conditions: peptide at 100 μg/ml, preincubated 37° C. 3 min; collagen 2 μg/ml

Substance	Binding of anti-GPVI Ab 6B12 to platelets (GPVI)	Binding of mAb against GPIb, AP1, to platelets (GPIb)	Inhibitory effect on ristocetin-induced platelet activation (washed platelets [1])	Binding of anti-integrin α2β1 mAb MAB1998 to platelets (α2β1 integrin)	Inhibition of the collagen-induced aggregation (%) (washed platelets [2])
CSLLKKETGFRKWFVASCIGKIPFVCKFPPQC	significantly inhibited	not affected	about 20%	not affected	
EEFECLISRTFDNQWLSAPCSDTYSFVCKFEA	significantly inhibited	not affected	about 20%	not affected	
RKWFVA					28.66 ± 5.10
